What was measured:
Assay type in all cases: cell-based
[1] = test system: T. b. brucei WT (s427) trypomastigotes; conditions: RF = EC50 (in the presence of glycerol)/EC50 (without glycerol)
Experimental: (§1) Other Trypanosoma species used in this study include T. evansi AntTat 3/3 (Wild-type); and T. equiperdum BoTat 1 (Bordeaux trypanozoon antigenic type 1) P (wild-type). All the trypanosomes were used only as bloodstream trypomastigotes and cultured in the standard Hirumi’s Modified Iscove’s medium #9 (HMI-9), supplemented with 10% heat-inactivated Fetal Bovine Serum (FBS), 14 μL/L β-mercaptoethanol, and 3.0 g sodium hydrogen carbonate per liter of medium (pH 7.4). Trypanosomes were cultured in vented flasks at 37 °C in a 5% CO2 atmosphere.
(§2) Briefly, this protocol involves preparing a 96-well cell culture plate with a 100 μL serially diluted test compound (200 μM top concentration) in HMI-9 + 10% FBS (24 wells per control drug or test compound, with the 24th well serving as drug-free). This is followed by adjusting the cell density of mid-log-phase trypanosome cultures to the required concentration of 2 × 10^5 cells/mL (2 × 10^4 cells/well). […] All incubations were carried out at 37 °C with 5% CO2. […] EC50 values were calculated using GraphPad Prism 9.0 software via nonlinear regression with an equation for a sigmoidal dose–response curve with variable slope (GraphPad Software Inc., San Diego, CA, USA).

T. brucei B48 = conditions: resistance factor relative to T. b. brucei wild type
Experimental: as §1, §2

T. brucei aqp1-3 null = conditions: resistance factor relative to T. b. brucei wild type
Experimental: as §1, §2

T. b. brucei SUR10 = conditions: resistance factor relative to T. b. brucei wild type

SMILES | T. b. brucei WT (+5 mM glycerol) RF [1] | T. brucei B48 RF (T. brucei B48) | aqp1-3 null RF (T. brucei aqp1-3 null) | SUR10 RF (T. b. brucei SUR10)
Cc1cc(O)ccc1C(=O)OCCCCCCCCCCCCCC[P+](c1ccccc1)(c1ccccc1)c1ccccn1.[Br-] [Compound 1, {14-[(4-Hydroxy-2-methylbenzoyl)-oxy]-tetradecyl}-diphenyl(pyridin-2-yl)-Phosphonium Bromide] | 0.45 | 0.8 | 0.38 | 1.14
N=C(N)c1ccc(/N=N/Nc2ccc(C(=N)N)cc2)cc1 [Dim., Diminazene aceturate] | 1.15 | – | – | –
N=C(N)c1ccc(OCCCCCOc2ccc(C(=N)N)cc2)cc1 [Pent., Pentamidine isethionate] | 1.49 | 243 | 12.1 | –
Cc1ccc(C(=O)Nc2ccc(S(=O)(=O)O)c3cc(S(=O)(=O)O)cc(S(=O)(=O)O)c23)cc1NC(=O)c1cccc(NC(=O)Nc2cccc(C(=O)Nc3cc(C(=O)Nc4ccc(S(=O)(=O)O)c5cc(S(=O)(=O)O)cc(S(=O)(=O)O)c45)ccc3C)c2)c1 [Suramin, reference compound] | – | – | – | 21.1

Reference: PMC12406258, “Uncovering the Unusual Inhibition Mechanism of a Trypanosome Alternative Oxidase Inhibitor Displaying Broad-Spectrum Activity against African Animal Trypanosomes” (Journal of Medicinal Chemistry, 2025)
